This note sets out measurements from US20120219613A1 (priority 2009, published 2012).

One assay deals with RVFV-ZH501. Further details: species or system mice. To be noted: mouse, in vivo, ip.
In assay [1] the test system is HIV-1 (pNL-GFPΔenv) psuedotyped with VSV-G. The class given is cell-based.

`C=CCN1C(=O)/C(=C/c2ccc(-c3ccccc3)o2)SC1=S` [LJ-001, (Z)-3-Allyl-5-(5-phenyl-2-furyl)methylene-4-oxothiazolidine-2-thione]: the “animals in which mortality was prevented” value with RVFV-ZH501 amounted to 100%. Further, in assay [1], the “cellular entry of the lentiviral genome” value was “inhibited regardless of the envelope”.
